A mixed list of measured activities; the numbers were collected in NIAID ChemDB.

Shared fields: enzyme or target tests; organism: HIV-1; target: Reverse transcriptase; endpoint: IC50

Rows are shuffled and stem from different studies.

O=c1cc(-c2ccccc2)oc2cc(O[C@H]3O[C@H](CO)[C@@H](O)[C@@H]3O)c(OCc3ccccc3)c(O)c12 ; read by: RT activity ; value: >1000 µg/mL
O=C(OC[C@H]1O[C@@H](n2cc(C(=O)Nc3ccc(Cl)cc3)c(=O)c3cc(Cl)ccc32)[C@H](OC(=O)c2ccccc2)[C@@H]1OC(=O)c1ccccc1)c1ccccc1 ; strain or isolate: HXB2 ; read by: ELISA / nucleotide incorporation ; value: 8.8 µM
CC(C)(C)c1cc(-c2c3nc(c(-c4cc(C(C)(C)C)c(O)c(C(C)(C)C)c4)c4ccc([nH]4)c(-c4cc(C(C)(C)C)c(O)c(C(C)(C)C)c4)c4nc(c(-c5cc(C(C)(C)C)c(O)c(C(C)(C)C)c5)c5ccc2[nH]5)C=C4)C=C3)cc(C(C)(C)C)c1O ; read by: nucleotide incorporation ; value: >100 µM
CCN1c2ncc(COc3ccnc(C(F)(F)F)c3)cc2C(=O)N(C)c2ccc(Cl)nc21 ; strain or isolate: WT ; read by: nucleotide incorporation / radiometric ; value: <1 µM
O=c1ccccc(-c2cncnc2)c1O ; read by: radiometric ; value: >1000 µM
CCN1c2ncc(COc3ccnc(C)c3)cc2C(=O)N(C)c2ccc(Cl)nc21 ; strain or isolate: WT ; read by: nucleotide incorporation / radiometric ; value: <1 µM
CC(C)=CCN1Cc2cccc3[nH]c(=S)n(c23)C[C@@H]1C ; strain or isolate: HE ; read by: nucleotide incorporation ; value: 2.5 µM
CCS(=O)(=O)N1CCN(C(=O)c2cc(O)c(O)c(O)c2)CC1 ; strain or isolate: BH10 ; read by: ELISA / nucleotide incorporation ; value: >50 µM
COc1ccccc1-c1c2nc(c(-c3ccccc3OC)c3ccc([nH]3)c(-c3ccccc3OC)c3nc(c(-c4ccccc4OC)c4ccc1[nH]4)C=C3)C=C2 ; read by: nucleotide incorporation ; value: >100 µM
O=C(O[C@@H]1Cc2c(O)cc(O)cc2O[C@@H]1c1cc(O)c(O)c(O)c1)c1cc(O)c(O)c(O)c1 ; read by: RT activity / fluorescence ; value: 11.7 µg/mL
CCN1c2ncc(CCc3ccccc3)cc2C(=O)N(C)c2cccnc21 ; strain or isolate: WT ; read by: nucleotide incorporation / radiometric ; value: <1 µM
Cc1nc([N+](=O)[O-])cn1CC(=O)CNc1cccc(Cl)c1 ; read by: RT activity / nucleotide incorporation ; value: >100 µM
CCN1c2ncc(CCOc3ccncc3)cc2C(=O)N(C)c2ccc(Cl)nc21 ; mutations: RT-Y181C ; read by: nucleotide incorporation / radiometric ; value: <1 µM
CC(C)(C)c1ccc(S(=O)(=O)N2CCN(C(=O)c3cc(O)c(O)c(O)c3)CC2)cc1 ; strain or isolate: BH10 ; read by: ELISA / nucleotide incorporation ; value: >50 µM
Cc1cc(S(N)(=O)=O)ccc1NC(=O)COc1ccc(Cl)c(Oc2cc(C#N)cc(C3CC3)c2)c1F ; read by: scintillation proximity / radiometric ; value: 0.0184 µM
Oc1ccccc1-c1c2nc(c(-c3ccccc3O)c3ccc([nH]3)c(-c3ccccc3O)c3nc(c(-c4ccccc4O)c4ccc1[nH]4)C=C3)C=C2 ; read by: nucleotide incorporation ; value: 3 µM
CCN1c2ncc(CN(C)c3ccccc3)cc2C(=O)N(C)c2ccc(Cl)nc21 ; mutations: RT-Y181C ; read by: nucleotide incorporation / radiometric ; value: >1 µM
COc1ccc([C@@H]2CC(=O)c3c(O)cc(O)cc3O2)cc1O ; read by: RT activity / fluorescence ; value: >100 µg/mL
Nc1ccn([C@H]2CC[C@@H](COP(=O)(O)OP(=O)(O)OP(=O)(O)O)O2)c(=O)n1 ; strain or isolate: HXB2 ; read by: ELISA ; value: 4.8 µM
Oc1cc(O)c2c(c1)O[C@@H](c1ccc(O)c(O)c1)[C@@H](O)C2 ; read by: RT activity / fluorescence ; value: >100 µg/mL
COc1cccc(C(=O)N2CCN(C(=O)c3cc(O)c(O)c(O)c3)CC2)c1 ; strain or isolate: BH10 ; read by: ELISA / nucleotide incorporation ; value: >50 µM
CCOc1ccc(-c2c3nc(c(-c4ccc(OCC)cc4)c4ccc([nH]4)c(-c4ccc(OCC)cc4)c4nc(c(-c5ccc(OCC)cc5)c5ccc2[nH]5)C=C4)C=C3)cc1 ; read by: nucleotide incorporation ; value: >100 µM
CC(C)=CCc1c2c(c(O)c3c1O[C@@]14C(=C[C@H]5CC1C(C)(C)O[C@]4(CC=C(C)C)C5=O)C3=O)C=CC(C)(C)O2 ; read by: nucleotide incorporation / radiometric ; value: 186.2 µg/mL
Cc1cn([C@@H]2O[C@H](CO[Si](C)(C)C(C)(C)C)C3(OS(=O)(=O)C=C3N)[C@H]2O[Si](C)(C)C(C)(C)C)c(=O)n(C)c1=O ; strain or isolate: IIIB ; mutations: RT-V106A ; read by: RT activity ; value: >250 µM
CC(C)=CCc1c2c(c(O)c3c1O[C@@]14C(=C[C@H]5CC1C(C)(C)O[C@]4(C/C=C(/C)C(=O)O)C5=O)C3=O)C=CC(C)(C)O2 ; read by: nucleotide incorporation / radiometric ; value: 11 µg/mL
CN(C)S(=O)(=O)N1CCC(NC(=O)c2cc(O)c(O)c(O)c2)CC1 ; strain or isolate: BH10 ; read by: ELISA / nucleotide incorporation ; value: >333.9 µM
CC(C)=CCc1c2c(c(O)c3c1O[C@@]14C5C[C@@H](C(=O)[C@@]1(C/C=C(/C)C(=O)O)OC5(C)C)C1OC14C3=O)C=CC(C)(C)O2 ; read by: nucleotide incorporation / radiometric ; value: 101.8 µg/mL
COc1cc2c(ccc3c4cc(OC)c(OC)cc4c[n+](C)c23)cc1O ; read by: RT activity / radiometric ; value: 26.4 µM
Cc1ncc([N+](=O)[O-])n1CCO ; read by: RT activity / nucleotide incorporation ; value: 0.094 µM
CCC(C)Oc1cc(=O)[nH]c(S(=O)(=O)c2cc(C)cc(C)c2)n1 ; strain or isolate: IIIB ; read by: nucleotide incorporation / radiometric ; value: 23.7 µM
CCOC(=O)[C@@H](Cc1ccc(O)c(O)c1)OC(=O)/C=C/c1ccc(O)c(O)c1/C=C/c1ccc(O)c(O)c1 ; read by: nucleotide incorporation / radiometric ; value: 56.38 µg/mL
CC(C)C[C@H](c1c(O)c(C=O)c(O)c(C=O)c1O)[C@@]1(C)CC[C@@H]2[C@@H]1[C@H]1[C@@H](CC[C@@]2(C)O)C1(C)C ; read by: RT activity ; value: 5.3 µM
Nc1ncnc2c1ncn2[C@H]1CC[C@@H](COP(=O)(O)OP(=O)(O)OP(=O)(O)O)O1 ; mutations: RT-T215Y K219Q ; read by: ELISA ; value: 8.4 µM
CC(=O)OC[C@H]1O[C@@H](Oc2cc3oc(-c4ccccc4)cc(=O)c3c(OCc3ccccc3)c2OCc2ccccc2)[C@H](OC(C)=O)[C@@H](OC(C)=O)[C@H]1OC(C)=O ; read by: RT activity ; value: >1000 µg/mL
Nc1ccc(-c2c3nc(c(-c4ccc(N)cc4)c4ccc([nH]4)c(-c4ccc(N)cc4)c4nc(c(-c5ccc(N)cc5)c5ccc2[nH]5)C=C4)C=C3)cc1 ; read by: nucleotide incorporation ; value: >100 µM
O=C(O)C1=CC(=C(c2ccc(O)c(C(=O)O)c2)c2ccc(O)c(C(=O)O)c2)C=CC1=O ; read by: RT activity / fluorescence ; value: >100 µg/mL
O=c1cccc(O)c(O)c1O ; read by: radiometric ; value: 3.2 µM
O=C(/C=C/c1ccc(O)c2c1[C@H](C(=O)O)[C@H](c1ccc(O)c(O)c1)O2)O[C@H](Cc1ccc(O)c(O)c1)C(=O)O ; read by: nucleotide incorporation / radiometric ; value: 43.64 µg/mL
CCN1c2ncccc2C(=O)N(C)c2ccc(-c3cc[nH]c3)nc21 ; mutations: RT-K103N ; read by: nucleotide incorporation ; value: 0.05 µM
O=c1cc(Cc2c(F)cccc2F)nc(SC2CCCC2)[nH]1 ; value: 600 µM
CC(=O)OC[C@H]1O[C@H](Oc2cc3oc(-c4ccccc4)cc(=O)c3c(OCc3ccccc3)c2OCc2ccccc2)[C@@H](OC(C)=O)[C@@H]1OC(C)=O ; read by: RT activity ; value: >1000 µg/mL
Cc1ncc([N+](=O)[O-])n1CCOC(c1ccccc1)c1ccccc1S ; read by: RT activity / nucleotide incorporation ; value: 12.3 µM
O=c1cc(-c2ccccc2)oc2cc(O)c(OCc3ccccc3)c(OCc3ccccc3)c12 ; read by: RT activity ; value: >1000 µg/mL
Cc1cncn1C(C)C(=O)Nc1cccc(O)c1 ; read by: RT activity / nucleotide incorporation ; value: >100 µM
CC(C)=CCC[C@@H](C)C1CC[C@]2(C)CC=C(C=O)C1(C=O)[C@@H]2O ; read by: nucleotide incorporation / radiometric ; value: 10 µM
COc1cccc(C(=O)N2CCC(NC(=O)c3cc(O)c(O)c(O)c3)CC2)c1 ; strain or isolate: BH10 ; read by: ELISA / nucleotide incorporation ; value: 186.3 µM
O=c1c(O)c(-c2ccc(O)cc2)oc2cc(O)cc(O)c12 ; read by: RT activity / fluorescence ; value: 41.4 µg/mL
CCN1c2ncc(COc3ccncc3)cc2C(=O)N(C)c2ccc(Cl)nc21 ; strain or isolate: WT ; read by: nucleotide incorporation / radiometric ; value: <1 µM
Oc1cc(O)c2c(c1)O[C@H](c1ccc(O)c(O)c1)[C@H](O)C2 ; read by: RT activity / fluorescence ; value: >100 µg/mL
CC(C)CC(c1c(O)c(C=O)c(O)c(C=O)c1O)C1CCC(C)C2=CC(C(C)(C)O)CCC21C ; read by: RT activity ; value: 8.1 µM
CCN1c2ncc(CNc3ccccc3)cc2C(=O)N(C)c2ccc(Cl)nc21 ; mutations: RT-Y181C ; read by: nucleotide incorporation / radiometric ; value: <1 µM
CCOc1ccc(N2CC(O)Cn3c2nc2c3c(=O)n(CC(N)=O)c(=O)n2C)cc1 ; read by: RT activity / RNase H / absorbance ; value: >100 µM
O=C(/C=C/c1ccc(O)c2c1[C@H](C(=O)O)[C@@H](c1ccc(O)c(O)c1)O2)O[C@H](Cc1ccc(O)c(O)c1)C(=O)O ; read by: nucleotide incorporation / radiometric ; value: >100 µg/mL
O=c1cc(-c2ccccc2)oc2cc(O[C@H]3O[C@H](CO)[C@@H](O)[C@H](O)[C@@H]3O)c(OCc3ccccc3)c(O)c12 ; read by: RT activity ; value: >1000 µg/mL
S=C(NCCc1cccc(Cl)c1)Nc1ccc(Br)cn1 ; read by: nucleotide incorporation ; value: 2.5 µM
CCOC(=O)CC(=O)N1CCC(NC(=O)c2cc(O)c(O)c(O)c2)CC1 ; strain or isolate: BH10 ; read by: ELISA / nucleotide incorporation ; value: >327.5 µM
CC(C)=CCN1Cc2cccc3[nH]c(=S)n(c23)C[C@@H]1C ; strain or isolate: NL4-3 ; read by: nucleotide incorporation ; value: 2.22 µM
CC(C)=CCc1c2c(c(O)c3c1O[C@@]14C(C[C@H]5CC1C(C)(C)O[C@]4(C/C=C(\C)C=O)C5=O)C3=O)C=CC(C)(C)O2 ; read by: nucleotide incorporation / radiometric ; value: 42.3 µg/mL
O=C(O)CN1C(C(=O)O)C2c3cc4c5c6c3-c3c(cc7c8c3C6C3c6c-5c(cc5ccc9cc(c-8c3c9c65)C7)C4)C2C1C(=O)O ; read by: nucleotide incorporation / radiometric ; value: 0.029 µM

Again, the opening 4 rows:

compound,strain or isolate,mutations,read by,value
O=c1cc(-c2ccccc2)oc2cc(O[C@H]3O[C@H](CO)[C@@H](O)[C@@H]3O)c(OCc3ccccc3)c(O)c12,,,RT activity,>1000 µg/mL
O=C(OC[C@H]1O[C@@H](n2cc(C(=O)Nc3ccc(Cl)cc3)c(=O)c3cc(Cl)ccc32)[C@H](OC(=O)c2ccccc2)[C@@H]1OC(=O)c1ccccc1)c1ccccc1,HXB2,,ELISA / nucleotide incorporation,8.8 µM
CC(C)(C)c1cc(-c2c3nc(c(-c4cc(C(C)(C)C)c(O)c(C(C)(C)C)c4)c4ccc([nH]4)c(-c4cc(C(C)(C)C)c(O)c(C(C)(C)C)c4)c4nc(c(-c5cc(C(C)(C)C)c(O)c(C(C)(C)C)c5)c5ccc2[nH]5)C=C4)C=C3)cc(C(C)(C)C)c1O,,,nucleotide incorporation,>100 µM
CCN1c2ncc(COc3ccnc(C(F)(F)F)c3)cc2C(=O)N(C)c2ccc(Cl)nc21,WT,,nucleotide incorporation / radiometric,<1 µM

ICn: concentration for n% inhibition. An empty or dashed field is not shown.